PubChem BioAssay AID1224833, University of Georgia – 2016
The deposit covers about 12,000 reagents; this is an unselected part. Of all reagents, about 5,600 (46%) are marked active. 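Active calls cover z-scores past 1 in both directions, so they include lowered as well as raised rotavirus replication.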

- Test: 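Human genes whose knock-down alters rotavirus replication in monkey cells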 (primary screen)
- Cell system: monkey MA104 kidney cells
- Reagent: siRNA pool against human genes, 50 nM
- Duration: 48 h knock-down before infection; read 24 h after infection
- Conditions: infection with rotavirus strain RV3 two days after transfection; infectious dose for this stage not given
- Measured: 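Rotavirus antigen per well by fluorescent immunoassay, normalised to non-targeting control wells on each plate and given as a standard z-score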
- Reading the numbers: z-score vs non-targeting control: higher = more rotavirus replication than with non-targeting control
- Active means: In these data the active calls have z-score vs non-targeting control at about -1 or lower, or at about 1 or higher
- Meaning of the calls: active = z-score beyond 1 either way; inactive = z-score within 1 of zero

gene knocked down,z-score vs non-targeting control,Outcome
BATF2 (basic leucine zipper ATF-like transcription factor 2),1.06,active
CYB561A3 (cytochrome b561 family member A3),0.491,inactive
ZSCAN10 (zinc finger and SCAN domain containing 10),0.525,inactive
ACADS (acyl-CoA dehydrogenase short chain),-1.04,active
TSPY2 (testis specific protein Y-linked 2),0.394,inactive
CRIP1 (cysteine rich protein 1),1.11,active
ZNF318 (zinc finger protein 318),-0.573,inactive
ARMC1 (armadillo repeat containing 1),-0.827,inactive
VSIR (V-set immunoregulatory receptor),1.33,active
MIEF2 (mitochondrial elongation factor 2),-0.832,inactive
SPATA16 (spermatogenesis associated 16),-0.457,inactive
"TAFAZZIN (tafazzin, phospholipid-lysophospholipid transacylase)",-1.99,active
FLOT1 (flotillin 1),1.15,active
OPCML (opioid binding protein/cell adhesion molecule like),-0.889,inactive
NAGA (alpha-N-acetylgalactosaminidase),-1.14,active
PNLDC1 (PARN like ribonuclease domain containing exonuclease 1),-1.88,active
KRTAP5-5 (keratin associated protein 5-5),0.715,inactive
SIX4 (SIX homeobox 4),-2.09,active
SLITRK1 (SLIT and NTRK like family member 1),0.922,inactive
OR1J2 (olfactory receptor family 1 subfamily J member 2),-0.706,inactive
CCNB2 (cyclin B2),1.6,active
"GCNT3 (glucosaminyl (N-acetyl) transferase 3, mucin type)",-1.23,active
MYL11 (myosin light chain 11),0.344,inactive
LAX1 (lymphocyte transmembrane adaptor 1),1.32,active
RNASEK (ribonuclease K),-0.786,inactive
RUNDC3B (RUN domain containing 3B),1.24,active
SLC25A47,-0.353,inactive
H4C8 (H4 clustered histone 8),2.44,active
AKAP1 (A-kinase anchoring protein 1),0.54,inactive
GNB2 (G protein subunit beta 2),1.48,active
RPLP0 (ribosomal protein lateral stalk subunit P0),-1.09,active
EIF5A2 (eukaryotic translation initiation factor 5A2),-1.74,active
FSTL4 (follistatin like 4),0.628,inactive
OR2T33 (olfactory receptor family 2 subfamily T member 33),-2.16,active
BTLA (B and T lymphocyte associated),2.42,active
ERMARD (ER membrane associated RNA degradation),0.076,inactive
PLGRKT (plasminogen receptor with a C-terminal lysine),-2.44,active
MRPS18B (mitochondrial ribosomal protein S18B),1.28,active
MRGPRX4 (MAS related GPR family member X4),-0.64,inactive
GRTP1 (growth hormone regulated TBC protein 1),-0.0549,inactive
MYNN (myoneurin),-0.173,inactive
RNASE11 (ribonuclease A family member 11 (inactive)),-1.29,active
DPPA2 (developmental pluripotency associated 2),1.18,active
COX6B1 (cytochrome c oxidase subunit 6B1),0.854,inactive

Not a retest: an excerpt of the list.
gene knocked down,z-score vs non-targeting control,Outcome
PNLDC1 (PARN like ribonuclease domain containing exonuclease 1),-1.88,active
KRTAP5-5 (keratin associated protein 5-5),0.715,inactive
SIX4 (SIX homeobox 4),-2.09,active
SLITRK1 (SLIT and NTRK like family member 1),0.922,inactive
OR1J2 (olfactory receptor family 1 subfamily J member 2),-0.706,inactive
CCNB2 (cyclin B2),1.6,active
"GCNT3 (glucosaminyl (N-acetyl) transferase 3, mucin type)",-1.23,active
MYL11 (myosin light chain 11),0.344,inactive
LAX1 (lymphocyte transmembrane adaptor 1),1.32,active
RNASEK (ribonuclease K),-0.786,inactive
RUNDC3B (RUN domain containing 3B),1.24,active
SLC25A47,-0.353,inactive
H4C8 (H4 clustered histone 8),2.44,active
AKAP1 (A-kinase anchoring protein 1),0.54,inactive
GNB2 (G protein subunit beta 2),1.48,active
RPLP0 (ribosomal protein lateral stalk subunit P0),-1.09,active

More entries follow.
gene knocked down,z-score vs non-targeting control,Outcome
KIAA1217,0.329,inactive
HNRNPA0 (heterogeneous nuclear ribonucleoprotein A0),0.632,inactive
TIMM23 (translocase of inner mitochondrial membrane 23),-1.77,active
MYL9 (myosin light chain 9),-0.172,inactive
IFI30 (IFI30 lysosomal thiol reductase),1.01,active
OR10H1 (olfactory receptor family 10 subfamily H member 1),0.336,inactive
NFIX (nuclear factor I X),-0.504,inactive
GPR45 (G protein-coupled receptor 45),1.43,active
OR5F1 (olfactory receptor family 5 subfamily F member 1),-0.596,inactive
TFPT (TCF3 fusion partner),-0.0788,inactive
TIGD6 (tigger transposable element derived 6),-1.02,active
GPX1 (glutathione peroxidase 1),-0.95,inactive
NAXD (NAD(P)HX dehydratase),-1.04,active
CFAP20 (cilia and flagella associated protein 20),-1.29,active
FSTL3 (follistatin like 3),0.819,inactive
DSG4 (desmoglein 4),0.194,inactive
TAL1,0.472,inactive
ARHGEF9 (Cdc42 guanine nucleotide exchange factor 9),-0.363,inactive
TM4SF1 (transmembrane 4 L six family member 1),-0.995,inactive
DOC2A (double C2 domain alpha),1.27,active
CDH13 (cadherin 13),-1.77,active
TCTA (T cell leukemia translocation altered),2.59,active
SPA17 (sperm autoantigenic protein 17),-0.97,inactive
IRX2-DT (IRX2 divergent transcript),-2.06,active
WASHC2C (WASH complex subunit 2C),-1.69,active
CD209 (CD209 molecule),-0.724,inactive
UBL3 (ubiquitin like 3),-5.68,active
MOBP (myelin associated oligodendrocyte basic protein),-1.06,active
EIF3L (eukaryotic translation initiation factor 3 subunit L),1.46,active
XRCC2 (X-ray repair cross complementing 2),-1.52,active
IGFBP4 (insulin like growth factor binding protein 4),-0.511,inactive
KLRC4 (killer cell lectin like receptor C4),-3.5,active
H2AC21 (H2A clustered histone 21),-2.03,active
BLTP3A (bridge-like lipid transfer protein family member 3A),-2.1,active
GALNS (galactosamine (N-acetyl)-6-sulfatase),-1.46,active
QSOX1 (quiescin sulfhydryl oxidase 1),0.461,inactive
PCDHA4 (protocadherin alpha 4),-0.427,inactive
CEP44 (centrosomal protein 44),0.345,inactive
UBXN6 (UBX domain protein 6),0.746,inactive
RLN2 (relaxin 2),-1.61,active
TAS2R41 (taste 2 receptor member 41),-0.45,inactive
CCDC88B (coiled-coil and HOOK domain protein 88B),-0.478,inactive
KLK5 (kallikrein related peptidase 5),-1.97,active
MCCC1 (methylcrotonyl-CoA carboxylase subunit 1),-1.85,active
CASP8 (caspase 8),0.725,inactive
TRNAU1AP (tRNA selenocysteine 1 associated protein 1),-0.933,inactive
PEX14 (peroxisomal biogenesis factor 14),0.904,inactive
CDIN1 (CDAN1 interacting nuclease 1),-0.483,inactive
RP1L1 (RP1 like 1),-1.88,active
DGCR2 (DiGeorge syndrome critical region gene 2),-1.41,active
TECTB (tectorin beta),0.595,inactive
BFSP2 (beaded filament structural protein 2),-1.73,active
CA8 (carbonic anhydrase 8 (inactive)),-1.04,active
SENP6 (SUMO specific peptidase 6),0.527,inactive
NDUFV1 (NADH:ubiquinone oxidoreductase core subunit V1),1.5,active
NOP2 (NOP2 nucleolar protein),-1.44,active
"TC2N (tandem C2 domains, nuclear)",-0.743,inactive
HNRNPL (heterogeneous nuclear ribonucleoprotein L),-0.0553,inactive
MED12 (mediator complex subunit 12),-1.66,active
TM6SF1 (transmembrane 6 superfamily member 1),-0.0679,inactive
STAC (SH3 and cysteine rich domain),-2.84,active
LAG3 (lymphocyte activating 3),2.29,active
SLC1A2,0.789,inactive
ATP6V0D1 (ATPase H+ transporting V0 subunit d1),-2.64,active
C1QC (complement C1q C chain),-0.276,inactive
CENPM (centromere protein M),1.16,active
